Results on 1 molecule are retold here after US20240166598A1, “COMPOUNDS, COMPOSITIONS, AND METHODS OF USING THE SAME” (priority 2021, published 2024).

In assay [1] the target is T1, SARS CoV-2 PLpro (Severe acute respiratory syndrome coronavirus 2 (2019-nCoV) (SARS-CoV-2), UniProt P0DTD1). Put plainly: PLpro primary assay (Z-RLRGG-AMC peptide substrate). In kind it is biochemical. The following applies: compared with GRL0617 / parent.
For assay [2], the target named is T1, SARS CoV-2 PLpro. Put plainly: Surface Plasmon Resonance (SPR) binding assay. The settings on record: read-out: SPR binding assays KD; Table 11. Background: Surface plasmon resonance follows binding to a sensor surface in real time, without labels.

The Kd is the concentration at which binding is half-saturated. On to `CNC(=O)C[C@@H](NC(=O)c1cc(N(C)C2CNC2)ccc1C)c1cccc2ccccc12`, for which, at SARS CoV-2 PLpro [1], the “PLpro inhibition potency, in words (SAR)” value is “almost completely inactive”. The Kd on SARS CoV-2 PLpro [2] was over 1000 µM.
